# Experimental data: PubChem BioAssay AID1224833 (University of Georgia, 2016)
# Screen: 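Human genes whose knock-down alters rotavirus replication in monkey cells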 (primary screen)
# Cells: monkey MA104 kidney cells
# Knock-down reagent: siRNA pool against human genes, 50 nM
# Time to read-out: 48 h knock-down before infection; read 24 h after infection
# Treatment: infection with rotavirus strain RV3 two days after transfection; infectious dose for this stage not given
# Measurement: 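z-score of rotavirus antigen signal per well, from a fluorescent immunoassay, relative to non-targeting control wells on the same plate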
# Direction: z-score vs non-targeting control: higher = more rotavirus replication than with non-targeting control
# Active means: In these data the active calls have z-score vs non-targeting control at about -1 or lower, or at about 1 or higher
# Calls: active = z-score beyond 1 either way; inactive = z-score within 1 of zero
# Shown is one part, drawn at random, of about 12,000 reagents. About 5,600 of all reagents (46%) count as active. 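Active calls cover z-scores past 1 in both directions, so they include lowered as well as raised rotavirus replication.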
Target gene,z-score vs non-targeting control,activity call
DCDC2,-1.26,active
TMEM230,-0.302,inactive
PIAS1,-0.642,inactive
AP1M1,0.17,inactive
CRY1,-1.1,active
TPP1,-0.788,inactive
MARS2,-0.942,inactive
SNX16,1.94,active
OR13J1,-1.19,active
MUC21,0.681,inactive
AKAP8,-0.822,inactive
TMCO5A,0.714,inactive
FARP1,1.09,active
ZNF91,-2.25,active
PPA2,-1.34,active
ACRBP,0.114,inactive
ITIH1,-0.53,inactive
SNRPG,-0.191,inactive
ARID3C,0.773,inactive
RAET1G,-0.419,inactive
ADAMTS7,0.507,inactive
TEX261,1.53,active
AIF1L,-0.388,inactive
RBBP7,-1.54,active
MAK16,1.6,active
MYNN,-0.173,inactive
GNG5,1.81,active
RBPMS2,0.05,inactive
TM9SF4,-0.979,inactive
ANKMY1,-0.136,inactive
SP8,-0.188,inactive
CYP27B1,-1.29,active
DFFA,2.07,active
PRM2,1.66,active
CD34,-1.14,active
MMS19,-0.635,inactive
NKRF,-1.84,active
NUB1,-0.803,inactive
NTM,0.141,inactive
CELA3B,2.2,active
SKI,-0.303,inactive
FAM177A1,-0.258,inactive
TRMT10A,-0.435,inactive
NFKBIE,-1.36,active
CDCA4,-0.21,inactive
VMA22,1.61,active
ZBTB38,-0.324,inactive
SYT9,-0.0627,inactive
BCL7B,1.22,active
NPM3,-0.135,inactive
ZNF787,-0.818,inactive
BRF2,-0.956,inactive
CLINT1,-1.03,active
SLC16A3,-0.955,inactive

12 of these entries in another layout:
Target gene	z-score vs non-targeting control	activity call
ADAMTS7	0.507	inactive
TEX261	1.53	active
AIF1L	-0.388	inactive
RBBP7	-1.54	active
MAK16	1.6	active
MYNN	-0.173	inactive
GNG5	1.81	active
RBPMS2	0.05	inactive
TM9SF4	-0.979	inactive
ANKMY1	-0.136	inactive
SP8	-0.188	inactive
CYP27B1	-1.29	active

Further records follow:
Target gene,z-score vs non-targeting control,activity call
SPTB,-0.465,inactive
CITED1,-1.24,active
PLAAT5,-0.154,inactive
TRHDE,1.06,active
MAGEL2,-1.06,active
CATSPERG,-1.01,active
SLC25A34,-1.43,active
SLC6A16,-0.81,inactive
MYOZ1,-1.5,active
XAB2,0.663,inactive
CCDC43,1.09,active
DGCR6L,-1.31,active
SPRED3,-1.3,active
EXOC1,0.0577,inactive
ANKRD17,1.28,active
PXT1,0.775,inactive
CCDC158,-1.17,active
AVIL,0.259,inactive
FAM228A,1.06,active
CYP2F1,-0.478,inactive
NDST3,1.75,active
OARD1,-1.98,active
ELOA,-2,active
DEUP1,0.569,inactive
DNAJC3,-0.298,inactive
USP3,-0.957,inactive
VPS37C,-1.76,active
TESMIN,-0.95,inactive
GREB1,-1.2,active
OAZ1,-1.38,active
SLC38A1,-1.29,active
TJP3,-1.29,active
CDIPT,-2.92,active
KEAP1,1.35,active
PSG11,0.153,inactive
WARS2,-1.17,active
MARCKS,-0.659,inactive
HNF1B,-4.17,active
CA6,0.644,inactive
ZNF304,-0.176,inactive
PKHD1L1,-1.3,active
MRPL45,1.21,active
FANCB,-2.02,active
TBC1D14,-0.534,inactive
PEF1,-0.328,inactive
ADHFE1,-1.22,active
ZNF621,-1.37,active
RAMP2,1.84,active
C19orf47,3.44,active
DDX41,-1.02,active
TASL,-0.825,inactive
DYNC1LI2,-1.66,active
LILRA2,-0.576,inactive
OVOL2,-0.193,inactive
LEP,-1.57,active
KLHL2,-1.9,active
